Test: Solid-state stability test of crystalline form D (XRPD and HPLC after storage)

CCN1C[C@]2(COC)CC[C@@H](OC)[C@]34C5C[C@]6(O)[C@@H](OC)C[C@@](OC(C)=O)(C5[C@H]6OC(=O)c5ccc(OC)cc5)[C@H](C13)[C@H](OC)[C@H]24 (some centres unmarked)
HPLC purity Area % (25° C./60% RH, open, 1 month): 99.29 Area %
HPLC purity Area % (25° C./60% RH, open, 1 week): 99.81 Area %
HPLC purity Area % (40° C./75% RH, open, 1 month): 99.74 Area %
HPLC purity Area % (40° C./75% RH, open, 1 week): 99.34 Area %
HPLC purity Area % (80° C., 24 hours, sealed): 99.56 Area %

From patent publication US20220185781A1, “BULLEYACONITINE D CRYSTAL AND PREPARATION METHOD THEREFOR AND APPLICATION THEREOF” (priority 2019, published 2022)
